Results of unrelated studies side by side (data: NIAID ChemDB).

All rows: target-level tests; organism: HIV-1; target: Protease; measure: IC50

Blank or dashed fields: not listed here. ICn: concentration for n% inhibition. Lines come from different laboratories, so protocols vary.

smiles,setting,method,value
COC(=O)[C@@H](NC(=O)C[C@H]1CC[C@H](O)[C@H]1NC(=O)[C@H](Cc1ccccc1)NC(=O)OC(C)(C)C)C(C)C,,absorbance,>10 µM
NC(=O)C[C@H](NC(=O)OCc1ccccc1)C(=O)N[C@@H](Cc1ccccc1)[C@H](O)C(=O)N1CCC[C@H]1C(=O)NCC1CCCCC1,,,~5 µM
CO[C@@H]([C@@H](CC(C)[C@@H]1CC[C@]2(C)C3=CCC4C(C)(C)C(O)CC[C@]4(C)C3CC[C@@]12C)OC(C)(C)C)C(C)(C)O,,substrate cleavage / fluorescence,>100 µM
CC(C)[C@H](NC(=O)O)C(=O)N[C@@H](Cc1ccccc1)[C@@H](O)[C@H](O)[C@H](Cc1ccccc1)NC(=O)[C@@H](NC(=O)O)C(C)C,,substrate cleavage,0.5 µM
COc1ccc2c(c1)NCCC1(CCN(Cc3ccccc3)CC1)O2,,absorbance,>10 µM
COc1ccc(CCC(=O)N2C[C@@H](O)[C@@H](Cc3ccccc3)N(Cc3ccc(O)c(OC)c3)C(=O)N2Cc2ccc(O)c(OC)c2)cc1,,fluorescence,<0.0005 µM
CC(C[C@@H](OC(=O)CC(C)(C)CC(=O)O)[C@H](OC(=O)CC(C)(C)CC(=O)O)C(C)(C)O)[C@@H]1CC[C@]2(C)C3=CCC4C(C)(C)C(=O)CC[C@]4(C)C3CC[C@@]12C,,substrate cleavage / fluorescence,>100 µM
C=CCc1ccc(O)c(-c2cc(O)ccc2O)c1,,FRET,500 µM
CC(C)(C)OCC(=O)N[C@@H](Cc1ccccc1)[C@@H](O)[C@H](O)[C@H](Cc1ccccc1)NC(=O)[C@@H](NC(=O)COc1ccccc1)C1CCCS1,,substrate cleavage,0.25 µM
COCCNC(=O)[C@@H](NC(=O)[C@H](Cc1cccc(OC)c1)C[C@H](O)[C@H](Cc1ccccc1)NC(=O)OC(C)(C)C)C(C)C,,fluorescence,0.001 µM
COC(=O)[C@H](CC(C)C)NC(=O)C[C@@H]1CC[C@@H](O)[C@@H]1NC(=O)[C@H](C)NC(=O)OC(C)(C)C,,absorbance,>10 µM
CC(C[C@H]1OC(C)(C)O[C@@H]1C(C)(C)O)[C@@H]1CC[C@]2(C)C3=CCC4C(C)(C)C(=O)C[C@]4(C)C3CC[C@@]12C,,substrate cleavage / fluorescence,>100 µM
O=C(CCc1ccccc1)N1C[C@@H](O)[C@@H](Cc2ccccc2)N(Cc2ccc(O)cc2)C(=O)N1Cc1ccc(O)cc1,pH 7.0,fluorescence,<0.0005 µM
COC(=O)[C@@H](NC(=O)C[C@H]1CC[C@@H](NC(=O)[C@H](Cc2ccccc2)NC(=O)OC(C)(C)C)[C@@H]1O)C(C)C,,absorbance,>10 µM
COc1ccc(C[C@H](C[C@H](O)[C@H](Cc2ccccc2)NC(=O)OC(C)(C)C)C(=O)N[C@H](C(=O)N[C@@H](Cc2ccccc2)C(=O)N2CCOCC2)C(C)C)c(OC)c1OC,,fluorescence,0.016 µM
C=CCc1ccc(O)c(-c2cc(C(O)C(C)O)ccc2O)c1,,FRET,35 µM
c1ccc(CN2CCC3(CCNc4ccccc4O3)CC2)cc1,,absorbance,>10 µM
COc1cc(CN2C(=O)N(Cc3ccc(O)c(OC)c3)N(C(=O)CCc3ccc(F)cc3)C[C@@H](O)[C@H]2Cc2ccccc2)ccc1O,,fluorescence,<0.0005 µM
CC(=O)N[C@@H](Cc1ccccc1)C(=O)N[C@@H](CCC(=O)O)C(=O)N[C@@H](Cc1ccccc1)[C@H](O)[C@@H](O)[C@H](Cc1ccccc1)NC(=O)[C@@H](NC(=O)[C@H](Cc1c[nH]c2ccccc12)NC(C)=O)C(C)C,,substrate cleavage,0.009 µM
CC(C)[C@H](NC(=O)[C@@H]1CCCN1C(=O)[C@H](O)[C@H](Cc1ccccc1)NC(=O)OC(C)(C)C)C(=O)OC1CCCCC1,,,>1000 µM
O=C(O)N[C@@H](Cc1c[nH]c2ccccc12)C(=O)N[C@@H](Cc1ccccc1)[C@@H](O)[C@H](O)[C@H](Cc1ccccc1)NC(=O)[C@H](Cc1c[nH]c2ccccc12)NC(=O)O,,substrate cleavage,25 µM
CC(C)(C)NC(=O)[C@H]1N(C(=O)[C@@H](O)[C@H](Cc2ccccc2)NC(=O)[C@H](CC(N)=O)NC(=O)OCc2ccccc2)CCC1(C)C,,,<0.05 µM
CCOC(=O)[C@]12CCC(C)(C)CC1C1=CCC3[C@@]4(C)CC[C@H](OC(=O)CC(C)(C)C(=O)O)[C@@](C)(CO[Si](C)(C)C(C)(C)C)C4CC[C@@]3(C)[C@]1(C)CC2,,substrate cleavage / fluorescence,35 µM
COc1c(O)cc(O)c2c1OC(c1ccccc1)CC2=O,,substrate cleavage / fluorescence,400 µg/mL
CC(=O)O[C@H](CC(C)[C@@H]1CC[C@]2(C)C3=CCC4C(C)(C)C(=O)CC[C@]4(C)C3CC[C@@]12C)[C@H](OC(C)=O)C(C)(C)OC(C)=O,,substrate cleavage / fluorescence,>100 µM
CC(C)[C@H](NC(=O)[C@H](Cc1ccc2c(c1)OCO2)C[C@H](O)[C@H](Cc1ccccc1)NC(=O)OC(C)(C)C)C(=O)N[C@@H](Cc1ccccc1)C(=O)N1CCOCC1,,fluorescence,0.005 µM
CC(=O)O[C@H](CC(C)[C@@H]1CC[C@]2(C)C3=CCC4C(C)(C)C(=O)CC[C@]4(C)C3CC[C@@]12C)[C@H](OC(C)=O)C(C)(C)O,,substrate cleavage / fluorescence,>100 µM
CCOC(=O)[C@]12CCC(C)(C)CC1C1=CCC3[C@@]4(C)CCC(=O)[C@@](C)(COC(=O)CCC(=O)O)C4CC[C@@]3(C)[C@]1(C)CC2,,substrate cleavage / fluorescence,66.8 µM
O=C(N[C@@H](Cc1ccccc1)[C@@H](O)[C@H](O)[C@H](Cc1ccccc1)NC(=O)c1cc(=O)c2ccccc2[nH]1)c1cc(=O)c2ccccc2[nH]1,,substrate cleavage,10 µM
COCCNC(=O)[C@@H](NC(=O)[C@H](Cc1ccc(OC)c(OC)c1)C[C@H](O)[C@H](Cc1ccccc1)NC(=O)OC(C)(C)C)C(C)C,,fluorescence,<0.0005 µM
O=C(CCc1ccccc1)N1C[C@@H](O)[C@@H](Cc2ccccc2)N(Cc2ccccc2)C(=O)N1Cc1ccc2[nH]ncc2c1,pH 7.0,fluorescence,<0.0005 µM
COCCNC(=O)[C@@H](NC(=O)[C@H](Cc1ccc(O)cc1)C[C@H](O)[C@H](Cc1ccccc1)NC(=O)OC(C)(C)C)C(C)C,,fluorescence,0.001 µM
O/N=C1\CC2(CCN(Cc3ccccc3)CC2)Oc2ccc(F)cc21,,absorbance,>10 µM
OC[C@H]1O[C@@H](Oc2cc(O)c(O)c(/C=C/c3ccc(O)cc3)c2)[C@H](O)[C@@H](O)[C@@H]1O,,FRET,126 µM
CCOC(=O)[C@]12CCC(C)(C)CC1C1=CCC3[C@@]4(C)CCC(=O)[C@@](C)(CO)C4CC[C@@]3(C)[C@]1(C)CC2,,substrate cleavage / fluorescence,>100 µM
CC(C)(C)NC(=O)[C@@H]1CCCN1C(=O)[C@@H](O)[C@H](Cc1ccccc1)NC(=O)[C@H](CC(N)=O)NS(=O)(=O)c1cccc2ccccc12,,,>0.05 µM
COc1ccc2c(c1)/C(=N/O)CC1(CCN(Cc3ccccc3)CC1)O2,,absorbance,>10 µM
CC[C@H](C)[C@H](NC(=O)OC(C)(C)C)C(=O)N[C@H]1[C@@H](CC(=O)N[C@@H](CC(C)C)C(=O)OC)CC[C@@H]1O,,absorbance,>10 µM
NC(=O)C[C@H](NC(=O)OCc1ccccc1)C(=O)N[C@@H](Cc1ccccc1)[C@H](O)C(=O)N1CCC[C@H]1C(=O)N1CC1,,,<5 µM
C=CCc1ccc(O)c(-c2cc(CC=C)ccc2O)c1,,FRET,800 µM
CCOC(=O)[C@]12CCC(C)(C)CC1C1=CCC3[C@@]4(C)CCC(=O)[C@@](C)(COC(=O)CCCC(=O)O)C4CC[C@@]3(C)[C@]1(C)CC2,,substrate cleavage / fluorescence,27.7 µM
O=C(COc1ccccc1)N[C@@H](Cc1ccccc1)[C@H](O)[C@@H](O)[C@H](Cc1ccccc1)NC(=O)[C@@H](NC(=O)c1cc(=O)c2ccccc2[nH]1)C1CCCS1,,substrate cleavage,0.009 µM